Reference: PubChem BioAssay AID504761 (Drosophila RNAi Screening Center, 2011)
The screen tested about 22,000 reagents; shown is a random part of those that have a named target and a result. In the full data, 116 (0.52%) were called active. 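Calls depend on retest data that are not deposited; infection was ranked per plate without normalising between plates; the unit of the infection score is not given.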 Raw values vary from plate to plate and are shown uncorrected. Entries without a mark were called inactive. Names joined by + are all predicted targets of the reagent. Further read-outs or replicates are left out here. Not stated in the record: the amount of reagent, the time to read-out.

Screen: 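Genome-wide fly cell screen for genes dengue virus requires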 (primary screen)
System: D.Mel-2 cells from Drosophila
Reagent: long dsRNA against Drosophila genes
Treatment: infection with dengue virus type 2; dose and infection time not stated
Measured: 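Cells stained for dengue envelope protein and imaged; percent of infected cells per well on duplicate plates, ranked by infection, with stained nuclei counted for cell number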
Reading the numbers: infection score: higher = more virus-infected cells; cell count: higher = more cells in the well
Call rule: 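Low infection ranks in the two replicates (chance level up to 0.065) followed by a retest with a 1.5-fold or larger significant decrease, p below 0.05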
Meaning of the calls: active = confirmed: knock-down lowers infection; inactive = not picked or not confirmed

| gene | amplicon | infection score, replicate 1 | infection score, replicate 2 | cell count, replicate 1 |
| --- | --- | --- | --- | --- |
| heca (headcase) | DRSC22990 | 0.58 | 7.34 | 5313 |
| heca (headcase) | DRSC25796 | 3.31 | 0.92 | 5718 |
| CG12617 | DRSC02176 | 3.94 | 3.68 | 5535 |
| CG12617 | DRSC28197 | 1.63 | 15.9 | 6576 |
| CG15208 | DRSC19654 | 2.89 | 23 | 6445 |
| mRpL24 (mitochondrial ribosomal protein L24) | DRSC03113 | 10.1 | 13.7 | 4621 |
| CG32793 | DRSC18145 | 0.2 | 5.69 | 492 |
| CG32793 | DRSC18194 | – | 8.74 | 397 |
| CG32793 | DRSC28737 | 25.3 | 21.2 | 6170 |
| AsnRS (Asparaginyl-tRNA synthetase) | DRSC01990 | 12.2 | 5.84 | 6360 |
| CG11961 | DRSC06099 | 8.98 | 6.01 | 4990 |
| Best4 (Bestrophin 4) | DRSC10792 | 2.27 | 0.7 | 6170 |
| Best4 (Bestrophin 4) | DRSC29196 | 17 | 12.2 | 5693 |
| Tg (Transglutaminase) | DRSC03047 | 4.2 | 6.44 | 5792 |
| Tg (Transglutaminase) | DRSC29048 | 19.6 | 13.1 | 2201 |
| CalpA (Calpain-A) | DRSC07352 | 2.25 | 1.11 | 6588 |
| IFT46 (Intraflagellar transport 46) | DRSC02462 | 21.7 | 20.3 | 5950 |
| Zw10 (Zeste-white 10) | DRSC18793 | 2.91 | – | 6398 |
| Zw10 (Zeste-white 10) | DRSC25620 | 2.85 | 3.07 | 5855 |
| CG9628 | DRSC11082 | 3.21 | 3.02 | 7010 |
| CG9628 | DRSC26359 | 7.48 | 6.64 | 5359 |
| htt (huntingtin) | DRSC16970 | 3.36 | 3.17 | 5620 |
| disco (disconnected) | DRSC20323 | 7.55 | 4.07 | 1378 |
| disco (disconnected) | DRSC25113 | 5.99 | 1.79 | 6709 |
| snoRNA:U31:54Ec + snoRNA:snR38:54Eb + snoRNA:U27:54Eb + 8 more | DRSC06458 | 26.4 | 11.8 | 5748 |

Reformatted: entries from further up
{"gene": "heca (headcase)", "amplicon": "DRSC25796", "infection score, replicate 1": 3.31, "infection score, replicate 2": 0.92, "cell count, replicate 1": 5718}
{"gene": "CG12617", "amplicon": "DRSC02176", "infection score, replicate 1": 3.94, "infection score, replicate 2": 3.68, "cell count, replicate 1": 5535}
{"gene": "CG12617", "amplicon": "DRSC28197", "infection score, replicate 1": 1.63, "infection score, replicate 2": 15.9, "cell count, replicate 1": 6576}
{"gene": "CG15208", "amplicon": "DRSC19654", "infection score, replicate 1": 2.89, "infection score, replicate 2": 23, "cell count, replicate 1": 6445}
{"gene": "mRpL24 (mitochondrial ribosomal protein L24)", "amplicon": "DRSC03113", "infection score, replicate 1": 10.1, "infection score, replicate 2": 13.7, "cell count, replicate 1": 4621}
{"gene": "CG32793", "amplicon": "DRSC18145", "infection score, replicate 1": 0.2, "infection score, replicate 2": 5.69, "cell count, replicate 1": 492}
{"gene": "CG32793", "amplicon": "DRSC18194", "infection score, replicate 2": 8.74, "cell count, replicate 1": 397}
{"gene": "CG32793", "amplicon": "DRSC28737", "infection score, replicate 1": 25.3, "infection score, replicate 2": 21.2, "cell count, replicate 1": 6170}
{"gene": "AsnRS (Asparaginyl-tRNA synthetase)", "amplicon": "DRSC01990", "infection score, replicate 1": 12.2, "infection score, replicate 2": 5.84, "cell count, replicate 1": 6360}

The results go on:
| gene | amplicon | infection score, replicate 1 | infection score, replicate 2 | cell count, replicate 1 |
| --- | --- | --- | --- | --- |
| CG32109 | DRSC09816 | 2.43 | 4.18 | 5916 |
| rl (rolled) | DRSC07833 | 2.23 | 1.29 | 6135 |
| rl (rolled) | DRSC20742 | 1.22 | 0.23 | 5393 |
| rl (rolled) | DRSC21814 | 11.1 | 2.06 | 5449 |
| Usp7 (Ubiquitin-specific protease 7) | DRSC18909 | 3.19 | 8.91 | 6173 |
| Usp7 (Ubiquitin-specific protease 7) | DRSC19604 | 2.14 | 2.86 | 6691 |
| Usp7 (Ubiquitin-specific protease 7) | DRSC26109 | 21 | 4.1 | 5081 |
| CG30429 | DRSC04040 | 1.38 | 0.45 | 6246 |
| CapaR (Capability receptor) | DRSC23640 | 1.87 | 1.53 | 6774 |
| mei-W68 (meiotic W68) | DRSC07649 | 3.44 | 0.82 | 6389 |
| CG10969 | DRSC09811 | 0.21 | 1.2 | 6221 |
| CG10969 | DRSC29502 | – | – | 301 |
| CG12159 | DRSC06114 | 5.76 | 13.2 | 3105 |
| CG7179 | DRSC25007 | 7.82 | 8.46 | 6180 |
| Ms (Myosuppressin) | DRSC16041 | 5.57 | 7.55 | 6355 |
| Ms (Myosuppressin) | DRSC29774 | 14.5 | 12.3 | 4779 |
| Vha68-1 (Vacuolar H[+] ATPase 68kD subunit 1) | DRSC03470 | 18 | 3.68 | 5989 |
| sug (sugarbabe) | DRSC06855 | 5.41 | 9.88 | 6232 |
| sug (sugarbabe) | DRSC29599 | 18 | 7.15 | 3774 |
| CG10589 | DRSC11629 | 3.66 | 5.14 | 6610 |
| alphaTub84B (alpha-Tubulin at 84B) | DRSC12622 | 9.16 | 8.78 | 404 |
| alphaTub84B (alpha-Tubulin at 84B) | DRSC25011 | 5.3 | 4.47 | 528 |
| CG30275 | DRSC04163 | 10.3 | 11.5 | 6595 |
| Ac3 (Adenylate cyclase 3) | DRSC03692 | 23.1 | 17.8 | 6366 |
| Tango1 (Transport and Golgi organization 1) | DRSC02127 | 10.4 | – | 5185 |
| Tango1 (Transport and Golgi organization 1) | DRSC27972 | 14.2 | 10.9 | 6270 |
| CG9686 | DRSC18439 | 16.2 | 14 | 4646 |
| CG9686 | DRSC28497 | 9.88 | 20.4 | 4141 |
| Csgalnact (Chondroitin sulfate N-acetylgalactosaminyltransferase) | DRSC06228 | 3.69 | 5.32 | 949 |
| CG12012 | DRSC08220 | 1.04 | 4.03 | 5986 |
| fdl (fused lobes) | DRSC07279 | 8.06 | 15.5 | 6812 |
| fdl (fused lobes) | DRSC26852 | 1.69 | 2.18 | 6443 |
| baf (barrier to autointegration factor) | DRSC03051 | 1.23 | 3.12 | 6033 |
| baf (barrier to autointegration factor) | DRSC26974 | 13 | 6.68 | 5599 |
